The results in this text go back to patent US20200165613, “VIRUS LIKE PARTICLE” (The University of Leeds, published 2020).

This data set concerns the target T1, STNV coat protein wild-type (Satellite tobacco necrosis virus 1) (UniProt P03606).
T1 sequence (looked up, limits assumed): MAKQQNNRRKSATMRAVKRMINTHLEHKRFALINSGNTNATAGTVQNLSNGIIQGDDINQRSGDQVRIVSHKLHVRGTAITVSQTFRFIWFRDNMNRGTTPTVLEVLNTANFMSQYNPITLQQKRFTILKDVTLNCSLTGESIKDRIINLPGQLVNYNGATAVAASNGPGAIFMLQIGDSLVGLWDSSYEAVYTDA
Put plainly: binding assay. The note with it: purified recombinant protein.

For at least one entry, the source does not settle the construct or the ends of the probe. Tags and fusion partners may be left off the protein sequences shown.

Regarding “AACAACAGAACAACAGGCGAAAAUCCGCAACAAUGCGUGCAGUGAAGCGCAUGAUAAAUACACAC [STNV PS2-4]”, the binding result (smFCS, RNase-resistant T=1 shells, lower yield than 127-mer, no collapse, label: 5' Alexa Fluor 488, variant of STNV-1 PS1-5 127-mer) is “binds”.
ACAUGCAACCAUGCACAC [B3 ACCA]: the binding result (svAUC, T=1 capsids with similar efficiency to PS3, 2 mM Ca2+, variant of B3 short / PS3 ACAA) was “binds”.
For “CCUUUUCAAGACAUGCAACAAUGCACACAG [B3 aptamer]”, the binding result (smFCS, trimeric capsomer then T=1 VLP, 1 nM RNA, label: Alexa Fluor 488) was “binds”.
